Assay results reported in the supplement of paper PMC9931576.
Human monoclonal antibodies against the spike receptor-binding domain (heavy:light variable regions). IC50 against pseudoviruses bearing the spike of naturally observed variants; lower = stronger; >10 µg/ml means not reached at the top dose. No active / inactive call. The stated detection limit is 0.0005 µg/ml; values near or below 0.001 µg/ml lie at the floor of the assay.

Key:
Assay in all cases: pseudovirus neutralization IC50; higher = weaker neutralization
[1] = target: SARS-CoV-2 Omicron BA.1 spike pseudovirus
Experimental: (§1)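 Single-round VSV luciferase pseudovirus mixed with antibody dilutions for 1 h and put on Huh-7 cells for about a day; IC50 from the dose curve.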

[2] = target: SARS-CoV-2 Omicron BA.2 spike pseudovirus
Experimental: as §1

[3] = target: SARS-CoV-2 Omicron BA.2.75 spike pseudovirus
Experimental: as §1

[4] = target: SARS-CoV-2 Omicron BA.5 spike pseudovirus
Experimental: as §1

[5] = target: SARS-CoV-2 Omicron BQ.1.1 spike pseudovirus
Experimental: as §1

[6] = target: SARS-CoV-2 Omicron XBB spike pseudovirus
Experimental: as §1

[7] = target: SARS-CoV-2 early D614G spike pseudovirus
Experimental: as §1

Binder | pseudovirus neutralization IC50 [1] [µg/mL] | pseudovirus neutralization IC50 [2] [µg/mL] | pseudovirus neutralization IC50 [3] [µg/mL] | pseudovirus neutralization IC50 [4] [µg/mL] | pseudovirus neutralization IC50 [5] [µg/mL] | pseudovirus neutralization IC50 [6] [µg/mL] | pseudovirus neutralization IC50 [7] [µg/mL]
BD55-4358 (protein) chain 1: EVQLVQSGAEVKKPGESLRISCKGSGYSFTSYWISWVRQMPGKGLEWMGRIDPSDSYTKYSPSFQGHVTISVDKSISTAHLQWSSLKASDTAMYYCARHEKHYYDRSGDYPHAEYFQYWGQGTLITVSS chain 2: EIVLTQSPGTLSLSPGERATLSCRASQSVSNNYLAWYQQKPGQAPRLLISGVSSRATGIPDRFSGSASGTDFTLTISRLEPEDFAVYYCQQYGSSSPMYTFGQGTKLEIK | 0.649 | > 10 | > 10 | > 10 | > 10 | > 10 | 0.137
BD55-4382 (protein) chain 1: QVQLVQSGAEVKKPGSSVKVSCKASGGNFIRDAFSWVRQAPGQGLEWMGRIIPFLEIPIYAQKFQDRVTITADKPTSTAYMELSSLRSEDTAVYYCARAQIVDIALAYNAVYYYGMDVWGQGTTVTVSS chain 2: DIQLTQSPSFLSASVGDRVTITCRASQGINNYLAWYQQNPGRAPKLLIYVASSLQSGVPSRFSGSGSGTEFTLTISSLQPEDFATYYCQQLNSYPLTFGGGTKVEIK | > 10 | > 10 | > 10 | > 10 | > 10 | > 10 | 2.34
BD55-4364 (protein) chain 1: EVQLVESGGALVQPGGSLRLSCAASGFTFSTYAMHWVRQAPGKGLEYVAAINNNGGGTFYANSVKGRFTISRDNSKNTLYLQMGSLRAEDMSVYYCAREGHSSNWYGLFFDYWGQGTLVTVSS chain 2: DIQMTQSPSSLSASVGDRVTITCRASQSINNYLNWYQQKPGKAPKLLIYAASTLQSGVPSRFSGSGSGTDFTLTISSLQPEDFATYYCQQSYITPMYTFGRGTKLEIK | > 10 | > 10 | > 10 | > 10 | > 10 | > 10 | > 10
BD55-4359 (protein) chain 1: QVTLRESGPALVKPTQTLTLTCTYSGFSVNTRGMCVSWIRQPPGKALEWLALIAWDDDTSYSKSLKTRLSIYKDTSKNQVVLTMTNMDPVDTATYYCARGTGVAGDNWFDPWGQGTLVTVSS chain 2: SYELTQPPSVSVSPGQTARIACSGDAFPNQYAYWYQQKPGQAPVLVIYKDSERPSGIPERFSGSSSGTTVTLTISGVQAEDEADYFCQSADSSGVVFGGGTKLTVL | > 10 | > 10 | > 10 | > 10 | > 10 | > 10 | > 10
BD55-4360 (protein) chain 1: QVQLVESGGGVVQPGRSLRLSCAASGFTFSSYAMHWVRQAPGKGLEWVAIISNDGNNKFYADSVKGRFIISRDNSRNTLYLQMNSLRAEDTALYYCARDRGTYYDLLDYWGQGTLVTVSS chain 2: DIVMTQSPDSLAVSLGERATINCKSSQKILSSSNNKNYLAWYQQKPGQPPKLLIYWASTRESGVPDRFTGSGSGTDFTLTISSLQAEDVAVYYCQQYYNTPVLTFGGGTKVEIK | > 10 | > 10 | > 10 | > 10 | > 10 | > 10 | > 10
BD55-3832 (protein) chain 1: QVQLVQSGAEVKKPGASVKVSCKASGYTFTRFYMHWVRQAPGQGLEWMGIIDPSGGSTTYAQKFQGRVTMTRDTSTSTVYMELSSLRSEDTAVYYCARDYYDSSGYYRFDPWGQGTLVTVSS chain 2: DIQMTQSPSSLSASVGDRVTIACRASQSISSYLNWYQQKPGKAPKLLIYAASTLQSGVPSRFSGSGSGTDFTLTISTLQPDDFATYYCQQSYSYPRGTFGQGTKVAIK | > 10 | > 10 | > 10 | > 10 | > 10 | > 10 | 5.73
BD55-4344 (protein) chain 1: EVQLLESGGGLVQPGGSLRLSCAASGFTFDHYAMSWVRQAPGKGLEWVSAISGSGGSTSYSDSVKGRFTISRDNSKNTLFLQMNSLRAEDTAVYYCAKRSGWARRAPGGGDYWGQGTLVTVSS chain 2: DIQMTQSPSSLSASVGDRVTITCQASQDISNYLNWYQQKPGKAPKLLIYDASNLETGVPSRFSGSGSGTDFTFTISSLQPEDIATYFCQQYDSLPESFGPGTKMDIK | > 10 | > 10 | > 10 | > 10 | > 10 | > 10 | 5.8
BD55-4343 (protein) chain 1: QVQLEESGPGLVKPSQILSLTCTVSGGAISSVSYCWSWIRQPAGRGLEWIGHVCSSDNINSNPSLKSRVTISVDTSKNQFSLKMTSVTAADTAVYYCARSTGDYEFDYWGQGTLVTVSS chain 2: DIQMTQSPPTLSASVGDRVTITCRASQSIGRWLAWYQQKPGKAPKLLIYKASILESGVPSRFSGSGSGTEFTLSFSSLQPDDFATYYCQQYNSYPPTFGGGTKVDIK | 2.33 | > 10 | > 10 | > 10 | > 10 | > 10 | 2.51
BD55-4356 (protein) chain 1: QVQLEESGPGLVKPSQILSLTCSVSGGSISSVSYCWSWIRQPAGKGLEWIGHMCSSGNTDSNPSLKSRVSISLDTSKNQFSLKMSSVTAADTAVYYCARSTGDYEFDYWGQGTLVTVSS chain 2: DIQMTQSPPTLSASVGDRVTITCRASQSISRWLAWYQQKPGRAPKLLIYKASILESGVPSRFSGSGSGTEFTLSFSSLQPDDFATYYCQQYNNYPPTFGGGTKVEIK | > 10 | > 10 | > 10 | > 10 | > 10 | > 10 | > 10
BD55-4345 (protein) chain 1: QVQLVQSGAEVKKPGSSVKVSCKASAGTFSSNAISWVRQAPGQGLEWLGRIIPIFGTSTYAQNFQGRITMTADESTGTAYMEMSRLTSEDTAVYYCARAGVLGGAGSYYVVDYWGQGSLVTVSS chain 2: NFMLTQPHSVSESPGKTVTISCTRSRGSIDSEYVQWYQQRPGSAPTTVIYEHNQTPSGVPDRFSGSIDTSSNSASLTISGLKTEDEAHYYCQSFDGSSQAWVFGGGTKLTVL | > 10 | > 10 | > 10 | > 10 | > 10 | > 10 | 0.245
BD55-1027 (protein) chain 1: QVQLQQWGAGLLKPSETLSLNCTVHGGPFRNFYWSWIRQSPGMGLEWIGEISHTGSTNYNPSLRSRVTISLDTPKSQFSVTLTSVTAADTAVYYCARETVGAAGYGAFDLWGQGTMVSVSS chain 2: QAGLTQPPSVSKALGQTATLTCTGNSNTVGNQGAAWLQQRQGRPPKLLSYRNNNRPAGISERFSASNSGNTASLTIDRLQPEDEADYYCSAWDSSISAWLFGGGTKLTVL | 2.4 | 7.24 | 3.87 | 7.31 | 8.83 | > 10 | 1.14
BD55-4348 (protein) chain 1: QVQLVESGGGVVQPGRSLRLSCAASGFTFRSYSMQWVRQAPGEGLEWVAILSYDGIIEYYSDSVKGRFTVSRDNSKNTLYLQMNSLRTEDTAIYYCARGSSSWSEDNWFDPWGQGTLVTVSS chain 2: SYVLTQPPSVSVAPGKTARITCGGDNIGSYSVHWYQQKPGQAPVLVVYDDNDRPSGIPERFSGSNSGNTATLTIGRVEAGDEADYYCQVWDSRSDHYVFGIGTKVTVL | > 10 | > 10 | > 10 | > 10 | > 10 | > 10 | 0.302
